In the assay the target is SARS-CoV-2 Mpro (Severe acute respiratory syndrome coronavirus 2, UniProt P0DTD1). To be noted: 2 µM Mpro, 20 µM DEK, rt, 20 mM HEPES pH 7.5.

With `O=C1C2(CCC13OC3c1ccccc1)OC2c1ccccc1` (stereo not shown) [DEK 9], the “covalent adduct with Mpro (in words)” value is given as “single adduct of +186 Da”.

These data come from publication PMC10601815, “αβ,α′β′-Diepoxyketones are mechanism-based inhibitors of nucleophilic cysteine enzymes” (Chemical Communications (Cambridge, England), 2023).
